Assay results reported in patent US8735414B2 (priority 2009, dated 2014).

tested on: HCV-poliovirus (HCV-PV) chimera in HeLa cells; assay: Compound activity evaluation using an HCV-poliovirus chimera

Structure (SMILES)	IC50 [nM]
N#Cc1c(-c2ccc(S(=O)(=O)NC(CF)CF)cn2)n(C2CCC2)c2cc(OC(F)(F)F)ccc12 [compound 24, 6-[3-cyano-1-cyclobutyl-6-(trifluoromethoxy)-1H-indol-2-yl]-N-(1,3-difluoropropan-2-yl)pyridine-3-sulfonamide]	< 500
N#Cc1c(-c2ccc(S(=O)(=O)NC(CF)CF)cn2)n(C2CCC2)c2ccc(F)cc12 [compound 29, 6-(3-cyano-1-cyclobutyl-5-fluoro-1H-indol-2-yl)-N-(1,3-difluoropropan-2-yl)pyridine-3-sulfonamide]	< 500
N#Cc1c(-c2ccc(S(=O)(=O)NC(CF)CF)cn2)n(C2CCC2)c2ccc(Cl)cc12 [compound 30, 6-(5-chloro-3-cyano-1-cyclobutyl-1H-indol-2-yl)-N-(1,3-difluoropropan-2-yl)pyridine-3-sulfonamide]	< 500
N#Cc1c(-c2ccc(S(=O)(=O)NC(CF)CF)cn2)n(C2CCC2)c2ccc(OC(F)F)cc12 [compound 32, 6-[3-cyano-1-cyclobutyl-5-(difluoromethoxy)-1H-indol-2-yl]-N-(1,3-difluoropropan-2-yl)pyridine-3-sulfonamide]	< 500
N#Cc1c(-c2ccc(S(=O)(=O)NC(CF)CF)cn2)n(C2CCCC2)c2ccc(OC(F)(F)F)cc12 [compound 34, 6-[3-cyano-1-cyclopentyl-5-(trifluoromethoxy)-1H-indol-2-yl]-N-(1,3-difluoropropan-2-yl)pyridine-3-sulfonamide]	< 500
CC(C)n1c(-c2ccc(S(=O)(=O)NC(CF)CF)cn2)c(C#N)c2ccc(OC(F)F)cc21 [compound 36, 6-[3-cyano-6-(difluoromethoxy)-1-(propan-2-yl)-1H-indol-2-yl]-N-(1,3-difluoropropan-2-yl)pyridine-3-sulfonamide]	< 500
N#Cc1c(-c2ccc(S(=O)(=O)NC(CF)CF)cn2)n(C2CCC2)c2cc(Cl)ccc12 [compound 37, 6-(6-chloro-3-cyano-1-cyclobutyl-1H-indol-2-yl)-N-(1,3-difluoropropan-2-yl)pyridine-3-sulfonamide]	< 500
N#Cc1c(-c2ccc(S(=O)(=O)NC(CF)CF)cn2)n(C2CCCC2)c2ccc(F)cc12 [compound 38, 6-(3-cyano-1-cyclopentyl-5-fluoro-1H-indol-2-yl)-N-(1,3-difluoropropan-2-yl)pyridine-3-sulfonamide]	< 500
N#Cc1c(-c2ccc(S(=O)(=O)NC(CF)CF)cn2)n(CC2CC2)c2cc(OC(F)F)ccc12 [compound 41, 6-[3-cyano-1-(cyclopropylmethyl)-6-(difluoromethoxy)-1H-indol-2-yl]-N-(1,3-difluoropropan-2-yl)pyridine-3-sulfonamide]	< 500
N#Cc1c(-c2ccc(S(=O)(=O)NC(CF)CF)cn2)n(C2CC2)c2cc(OC(F)F)ccc12 [compound 42, 6-[3-cyano-1-cyclopropyl-6-(difluoromethoxy)-1H-indol-2-yl]-N-(1,3-difluoropropan-2-yl)pyridine-3-sulfonamide]	< 500
CC(C)c1ccc2c(C#N)c(-c3ccc(S(=O)(=O)NC(CF)CF)cn3)n(C3CCC3)c2c1 [compound 43, 6-[3-cyano-1-cyclobutyl-6-(propan-2-yl)-1H-indol-2-yl]-N-(1,3-difluoropropan-2-yl)pyridine-3-sulfonamide]	< 500
Cc1ccc2c(C#N)c(-c3ccc(S(=O)(=O)NC(CF)CF)cn3)n(C3CCCC3)c2c1 [compound 44, 6-(3-cyano-1-cyclopentyl-6-methyl-1H-indol-2-yl)-N-(1,3-difluoropropan-2-yl)pyridine-3-sulfonamide]	< 500
CCCn1c(-c2ccc(S(=O)(=O)NC(CF)CF)cn2)c(C#N)c2ccc(OC(F)F)cc21 [compound 45, 6-[3-cyano-6-(difluoromethoxy)-1-propyl-1H-indol-2-yl]-N-(1,3-difluoropropan-2-yl)pyridine-3-sulfonamide]	< 500
N#Cc1c(-c2ccc(S(=O)(=O)NC(CF)CF)cn2)n(C2CCCC2)c2cc(OC(F)F)ccc12 [compound 49, 6-[3-cyano-1-cyclopentyl-6-(difluoromethoxy)-1H-indol-2-yl]-N-(1,3-difluoropropan-2-yl)pyridine-3-sulfonamide]	< 500
N#Cc1c(-c2ccc(S(=O)(=O)NC(CF)CF)cn2)n(C2CCC2)c2cc(Cl)c(F)cc12 [compound 50, 6-(6-chloro-3-cyano-1-cyclobutyl-5-fluoro-1H-indol-2-yl)-N-(1,3-difluoropropan-2-yl)pyridine-3-sulfonamide]	< 500
CC(NS(=O)(=O)c1ccc(-c2c(C#N)c3ccc(OC(F)F)cc3n2C2CCCC2)nc1)C(F)(F)F (stereo not shown) [compound 53, 6-[3-cyano-1-cyclopentyl-6-(difluoromethoxy)-1H-indol-2-yl]-N-(1,1,1-trifluoropropan-2-yl)pyridine-3-sulfonamide]	< 500
Cc1ccc2c(C#N)c(-c3ccc(S(=O)(=O)NC(CF)CF)cn3)n([C@@H]3CCOC3)c2c1 [compound 54, 6-{3-cyano-6-methyl-1-[(3R)-tetrahydrofuran-3-yl]-1H-indol-2-yl}-N-(1,3-difluoropropan-2-yl)pyridine-3-sulfonamide]	< 500

Structure (SMILES)	IC50 [nM]
CC(C)n1c(-c2ccc(S(=O)(=O)NC(CF)CF)cn2)c(C#N)c2cc(F)ccc21 [compound 60, 6-[3-cyano-5-fluoro-1-(propan-2-yl)-1H-indol-2-yl]-N-(1,3-difluoropropan-2-yl)pyridine-3-sulfonamide]	< 500
CC(C)n1c(-c2ccc(S(=O)(=O)NC(CF)CF)cn2)c(C#N)c2ccc(F)cc21 [compound 61, 6-[3-cyano-6-fluoro-1-(propan-2-yl)-1H-indol-2-yl]-N-(1,3-difluoropropan-2-yl)pyridine-3-sulfonamide]	< 500
N#Cc1c(-c2ccc(S(=O)(=O)NC(CF)CF)cn2)n(C2CCCC2)c2cc(Cl)ccc12 [compound 64, 6-(6-chloro-3-cyano-1-cyclopentyl-1H-indol-2-yl)-N-(1,3-difluoropropan-2-yl)pyridine-3-sulfonamide]	< 500
CC(C)n1c(-c2ccc(S(=O)(=O)NC(CF)CF)cn2)c(C#N)c2cc(Cl)ccc21 [compound 65, 6-[5-chloro-3-cyano-1-(propan-2-yl)-1H-indol-2-yl]-N-(1,3-difluoropropan-2-yl)pyridine-3-sulfonamide]	< 500
N#Cc1c(-c2ccc(S(=O)(=O)NC(CF)CF)cn2)n(CC2CC2)c2cc(OC(F)(F)F)ccc12 [compound 68, 6-[3-cyano-1-(cyclopropylmethyl)-6-(trifluoromethoxy)-1H-indol-2-yl]-N-(1,3-difluoropropan-2-yl)pyridine-3-sulfonamide]	< 500
CC(C)NS(=O)(=O)c1cnc(-c2c(C#N)c3ccc(C4CC4)cc3n2C2CCC2)nc1 [compound 71, 2-(3-cyano-1-cyclobutyl-6-cyclopropyl-1H-indol-2-yl)-N-(propan-2-yl)pyrimidine-5-sulfonamide]	< 500
N#Cc1c(-c2ccc(S(=O)(=O)NC(CF)CF)cn2)n(C2CCCC2)c2ccc(Cl)cc12 [compound 72, 6-(5-chloro-3-cyano-1-cyclopentyl-1H-indol-2-yl)-N-(1,3-difluoropropan-2-yl)pyridine-3-sulfonamide]	< 500
Cc1ccc2c(C#N)c(-c3ncc(S(=O)(=O)NC(C)C)cn3)n(C3CCCC3)c2c1 [compound 74, 2-(3-cyano-1-cyclopentyl-6-methyl-1H-indol-2-yl)-N-(propan-2-yl)pyrimidine-5-sulfonamide]	< 500
Cc1ccc2c(C#N)c(-c3ccc(S(=O)(=O)NC(CF)CF)cn3)n(C(C)C)c2c1 [compound 80, 6-[3-cyano-6-methyl-1-(propan-2-yl)-1H-indol-2-yl]-N-(1,3-difluoropropan-2-yl)pyridine-3-sulfonamide]	< 500
Cc1ccc2c(C#N)c(-c3ccc(S(=O)(=O)NC(CF)CF)cn3)n(CC3CC3)c2c1 [compound 81, 6-[3-cyano-1-(cyclopropylmethyl)-6-methyl-1H-indol-2-yl]-N-(1,3-difluoropropan-2-yl)pyridine-3-sulfonamide]	< 500
Cc1ccc2c(C#N)c(-c3ccc(S(=O)(=O)NC(CF)CF)cn3)n(C3CCC3)c2c1 [compound 82, 6-(3-cyano-1-cyclobutyl-6-methyl-1H-indol-2-yl)-N-(1,3-difluoropropan-2-yl)pyridine-3-sulfonamide]	< 500
CC(C)n1c(-c2ccc(S(=O)(=O)NC(CF)CF)cn2)c(C#N)c2ccc(C3CC3)cc21 [compound 83, 6-[3-cyano-6-cyclopropyl-1-(propan-2-yl)-1H-indol-2-yl]-N-(1,3-difluoropropan-2-yl)pyridine-3-sulfonamide]	< 500
N#Cc1c(-c2ccc(S(=O)(=O)NC(CF)CF)cn2)n(CC2CC2)c2cc(C3CC3)ccc12 [compound 84, 6-[3-cyano-6-cyclopropyl-1-(cyclopropylmethyl)-1H-indol-2-yl]-N-(1,3-difluoropropan-2-yl)pyridine-3-sulfonamide]	< 500
N#Cc1c(-c2ccc(S(=O)(=O)NC(CF)CF)cn2)n(C2CCCC2)c2cc(C3CC3)ccc12 [compound 85, 6-(3-cyano-1-cyclopentyl-6-cyclopropyl-1H-indol-2-yl)-N-(1,3-difluoropropan-2-yl)pyridine-3-sulfonamide]	< 500
N#Cc1c(-c2ccc(S(=O)(=O)NC(CF)CF)cn2)n(C2CCCCC2)c2cc(Cl)ccc12 [compound 89, 6-(6-chloro-3-cyano-1-cyclohexyl-1H-indol-2-yl)-N-(1,3-difluoropropan-2-yl)pyridine-3-sulfonamide]	< 500
N#Cc1c(-c2ccc(S(=O)(=O)NC(CF)CF)cn2)n(C2CCCCC2)c2cc(C3CC3)ccc12 [compound 92, 6-(3-cyano-1-cyclohexyl-6-cyclopropyl-1H-indol-2-yl)-N-(1,3-difluoropropan-2-yl)pyridine-3-sulfonamide]	< 500
N#Cc1c(-c2ccc(S(=O)(=O)NC3(C(F)(F)F)CC3)cn2)n(C2CCCC2)c2cc(OC(F)F)ccc12 [compound 94, 6-[3-cyano-1-cyclopentyl-6-(difluoromethoxy)-1H-indol-2-yl]-N-[1-(trifluoromethyl)cyclopropyl]pyridine-3-sulfonamide]	< 500
